Assay results as given in patent US20240408194A1, “DNA ORIGAMI SUBUNIT VACCINE FOR PREVENTION OF SARS-CoV-2 VARIANT INFECTION” (ARIZONA BOARD OF REGENTS ON BEHALF OF ARIZONA STATE …, published 2024).

Biological target: spike P1

B1: LCB1 protein (designed binder)
chain: DKEWILQKIYEIMRLLDELGHAEASMRVSDLIYEFMKKGDERLLEEAERLLEEVER
B1 showed a Kd of 0.75 nM.
